Laboratory results taken from ChEMBL document CHEMBL5500399, “Design, Synthesis, and Biological Evaluation of 1,2,4-Oxadiazole Derivatives Containing an Aryl Carboxylic Acid Moiety as Potent Sarbecovirus Papain-like Protease Inhibitors” (J Med Chem, 2024).

Key:
Test in all cases: microbe, parasite or virus in culture
SARS-CoV-2 [1] = conditions: Severe acute respiratory syndrome coronavirus 2, BetaCoV/Shenzhen/SZTH-003/2020, Vero C1008
SARS-CoV-2 [2] = conditions: Severe acute respiratory syndrome coronavirus 2, 2019-nCoV, Vero C1008
SARS-CoV-2 [3] = conditions: Severe acute respiratory syndrome coronavirus 2, Omicron BA.1, Vero C1008

`Cc1ccc(N)cc1C(=O)N[C@H](C)c1cccc2ccccc12` was tested, and the EC50 (SARS-CoV-2 [1]) was 21 µM, the EC50 (SARS-CoV-2 [2]) was 44.1 µM and the EC50 (SARS-CoV-2 [3]) was 80.8 µM.
